The text below walks through data of publication PMC12720783, “Dynamic interaction of the Yersinia pseudotuberculosis type three secretion system proteins LcrV and LcrG” (2025).

This experiment deals with LcrG, full length, Yersinia pseudotuberculosis, P69958 1-95. The experiment in a line: FRET or BRET. For orientation: In BRET a luciferase serves as donor, and the signal depends on an acceptor being close.

Consider “LcrV-BODIPY (LcrV C273A D293C labelled with BODIPY)”, for which the result was “binds”.
